How the values were obtained:
[1] = biological target: Human SARS-CoV-2 Alpha (B.1.1.7) S (SARS-CoV-2 (Alpha, B.1.1.7)); test: SPR, VHH over immobilised S
[2] = biological target: Human SARS-CoV-2 Beta (B.1.351) S (SARS-CoV-2 (Beta, B.1.351)); test: SPR, VHH over immobilised S
[3] = biological target: SARS-CoV-2 spike protein S on live virus, Beta variant (SARS-CoV-2 (Beta variant)) (UniProt P0DTC2); test: cell-based or functional assay
[4] = biological target: Human SARS-CoV-2 Alpha S (SARS-CoV-2 (Alpha variant)); test: flow cytometry SVNA: VHH-Fc inhibits S binding to ACE2 on Vero E6 cells
[5] = biological target: Human SARS-CoV-2 Beta S (SARS-CoV-2 (Beta variant)) (UniProt P0DTC2); test: as above

| Substance | Kd [1] [nM] | koff [1] [s⁻¹] | kon [1] [M⁻¹ s⁻¹] | Kd [2] [nM] | koff [2] [s⁻¹] | kon [2] [M⁻¹ s⁻¹] | LVNA IC50 [3] [nM] | IC50 [4] [nM] | IC50 [5] [nM] |
| --- | --- | --- | --- | --- | --- | --- | --- | --- | --- |
| VHH-72 VHH | 96 | 0.101 | 1.05e+06 | 124 | 0.0992 | 801000 |  |  |  |
| VHH-72 VHH-Fc (Fc fusion) |  |  |  |  |  |  | 9.34 | 10.6 | 5.1 |
